Results of unrelated studies side by side (data: NIAID ChemDB).

Shared fields: tests in culture; organism: Aspergillus niger; measure: zone

Zone: diameter of growth inhibition. Neighbouring rows are from separate reports. An empty or dashed field is not shown.

| structure | strain | read by | dose | result |
|---|---|---|---|---|
| COc1ccc(C2CC(=O)C3=C(C2)OC2=C(C(=O)CC(c4ccc(OC)c(OC)c4)C2)C3c2ccc(C3C4=C(CC(c5ccc(OC)c(OC)c5)CC4=O)OC4=C3C(=O)CC(c3ccc(OC)c(OC)c3)C4)cc2)cc1OC | ATCC 10949 | agar diffusion | 20 µg/mL | 0 mm |
| O=C(NN=Cc1ccc(O)cc1)c1snnc1C(F)(F)F | MTCC 1344 | agar diffusion / agar | 150 µg/mL | 0 mm |
| CSC1=NC(c2ccc(O)cc2)C(C#N)=C(N)N1 | MTCC 282 | agar diffusion | 50 µg/mL | 15 mm |
| CC1(CN2C(=N)C(=S)N(c3ccc(F)cc3)C2=O)CCC(N2C(=N)C(=S)N(c3ccc(F)cc3)C2=O)C(C)(C)C1 | - | agar diffusion / agar | 5 mg/mL | 0 mm |
| COc1ccc(-c2nc(S(C)(=O)=O)nc(N)c2C#N)cc1 | MTCC 282 | agar diffusion | 50 µg/mL | 19 mm |
| CC1(C)CC(=O)C2=C(C1)OC1=C(C(=O)CC(C)(C)C1)C2c1cccc(C2C3=C(CC(C)(C)CC3=O)OC3=C2C(=O)CC(C)(C)C3)c1 | ATCC 10949 | agar diffusion | 140 µg/disc | 0 mm |
| COc1ccc(C2N=C(SC)NC(N)=C2C#N)cc1 | MTCC 282 | agar diffusion | 50 µg/mL | 14 mm |
| Cc1nc2ccccc2n(CC(=O)NN2C(=O)CSC2c2ccc(Cl)cc2)c1=O | - | - | 50 µg/mL | 11 mm |
| CC(=NNC(=O)c1snnc1C(F)(F)F)c1ccccc1 | MTCC 1344 | agar diffusion / agar | 150 µg/mL | 0 mm |
| Cc1nc2ccccc2n(CC(=O)NN2C(=O)CSC2c2ccc([N+](=O)[O-])cc2)c1=O | - | - | 50 µg/mL | 13 mm |
| CC(C)=NNC(=O)c1snnc1C(F)(F)F | MTCC 1344 | agar diffusion / agar | 100 µg/mL | 0 mm |
| COC1=CC(=O)C[C@@H](C)[C@]12Oc1c(Cl)c(OC)cc(OC)c1C2=O | - | agar diffusion / agar | 5 mg/mL | 21 mm |
| N=C1OCC(=O)N1CCCNc1ccnc2cc(Cl)ccc12 | - | agar diffusion | 200 µg/mL | 46 mm |
| CS(=O)(=O)C1=NC(c2cccc3cc4ccccc4cc23)C(C#N)=C(N)N1 | MTCC 282 | agar diffusion | 25 µg/mL | 18 mm |
| N=C1C(=S)N(c2cccc(F)c2)C(=O)N1c1ccc(F)cc1 | - | agar diffusion / agar | 5 mg/mL | 30 mm |
| COc1ccc(C=NNC(=O)c2snnc2C(F)(F)F)cc1 | MTCC 1344 | agar diffusion / agar | 100 µg/mL | 0 mm |
| COc1ccc(C2SCC(=O)N2NC(=O)Cn2c(=O)c(C)nc3ccccc32)cc1 | - | - | 100 µg/mL | 14 mm |
| CC1(C)CC(=O)C2=C(C1)OC1=C(C(=O)CC(C)(C)C1)C2c1ccc(C2C3=C(CC(C)(C)CC3=O)OC3=C2C(=O)CC(C)(C)C3)cc1 | ATCC 10949 | agar diffusion | 20 µg/mL | 0 mm |
| C[C@@H]1[C@H](O)[C@@H](C)/C=C/C=C/C=C/C=C/C=C/C=C/C=C/[C@H](O[C@@H]2O[C@H](C)[C@@H](O)[C@H](N)[C@@H]2O)C[C@@H]2O[C@](O)(C[C@@H](O)C[C@@H](O)[C@H](O)CC[C@@H](O)C[C@@H](O)CC(=O)O[C@H]1C)C[C@H](O)[C@H]2C(=O)O | MTCC 1344 | agar diffusion / agar | 100 µg/mL | 25 mm |
| CS(=O)(=O)c1nc(N)c(C#N)c(-c2ccc(Cl)cc2)n1 | MTCC 282 | agar diffusion | 25 µg/mL | 19 mm |
| O=C1CCCC2=C1C(c1ccc(C3C4=C(CCCC4=O)OC4=C3C(=O)CCC4)cc1)C1=C(CCCC1=O)O2 | ATCC 10949 | agar diffusion | 140 µg/disc | 7 mm |
| O=C(NN=Cc1cccs1)c1snnc1C(F)(F)F | MTCC 1344 | agar diffusion / agar | 150 µg/mL | 0 mm |
| Cc1cc(=O)oc2c(C=Nc3cccc4cccc(N=Cc5c(O)ccc6c(C)cc(=O)oc56)c34)c(O)ccc12 | MTCC 1881 | - | 100 µg/mL | 8 mm |
| O=C(NN=Cc1ccc([N+](=O)[O-])cc1)c1snnc1C(F)(F)F | MTCC 1344 | agar diffusion / agar | 100 µg/mL | 0 mm |
| Cc1ccc2c(c1)C(C1SCC(=O)N1NC(=O)N1c3ccccc3C=Cc3ccccc31)C(c1ccccc1)=N2 | MTCC 281 | agar diffusion | 500 µg/mL | 2 mm |
| CS(=O)(=O)c1nc(N)c(C#N)c(-c2ccccc2[N+](=O)[O-])n1 | MTCC 282 | agar diffusion | 25 µg/mL | 19 mm |
| NCCCNc1ccnc2cc(Cl)ccc12 | - | agar diffusion | 200 µg/mL | 44 mm |
| COc1ccc(C2SCC(=O)N2NC(=O)Cn2c(=O)c(C)nc3ccccc32)cc1O | - | - | 100 µg/mL | 21 mm |
| Cc1ccc(N2C(=O)N(c3ccc(F)cc3)C(=N)C2=S)cc1 | - | agar diffusion / agar | 5 mg/mL | 13 mm |
| OC(Cn1cncn1)(Cn1cncn1)c1ccc(F)cc1F | - | - | 50 µg/mL | 99 mm |
| CC1=C(Cl)C(O)=CC(=O)C12Oc1cc(O)c(Cl)c(C)c1C2=O | MTCC 282 | agar diffusion | 50 µg/mL | 22 mm |
| Cc1nc2ccccc2n(CC(=O)NN2C(=O)CSC2c2ccccc2O)c1=O | - | - | 50 µg/mL | 8 mm |
| Cc1ccc2c(c1)C(C=NNC(=O)N1c3ccccc3C=Cc3ccccc31)C(c1ccccc1)=N2 | MTCC 281 | agar diffusion | 750 µg/mL | 12 mm |
| O=C1CC(c2ccccc2)CC2=C1C(c1cccc(C3C4=C(CC(c5ccccc5)CC4=O)OC4=C3C(=O)CC(c3ccccc3)C4)c1)C1=C(CC(c3ccccc3)CC1=O)O2 | ATCC 10949 | agar diffusion | 140 µg/disc | 0 mm |
| CS(=O)(=O)c1nc(N)c(C#N)c(-c2ccc(O)cc2)n1 | MTCC 282 | agar diffusion | 50 µg/mL | 19 mm |
| O=C(NN1C(=O)CSC1C1C(c2ccccc2)=Nc2ccc(Cl)cc21)N1c2ccccc2C=Cc2ccccc21 | MTCC 281 | agar diffusion | 1000 µg/mL | 14 mm |
| O=C(NN=Cc1ccc(Cl)cc1)c1snnc1C(F)(F)F | MTCC 1344 | agar diffusion / agar | 100 µg/mL | 0 mm |
| N=C1C(=S)N(c2ccc(F)cc2)C(=O)N1c1ccc(Cl)c(C(F)(F)F)c1 | - | agar diffusion / agar | 5 mg/mL | 16.5 mm |
| COc1ccc(/C=C2/OC3(COC(=O)N3)N(CCCNc3ccnc4cc(Cl)ccc34)C2=O)cc1 | - | agar diffusion | 400 µg/mL | 20 mm |

Repeating the final 4 entries:

structure | strain | read by | dose | result
O=C(NN1C(=O)CSC1C1C(c2ccccc2)=Nc2ccc(Cl)cc21)N1c2ccccc2C=Cc2ccccc21 | MTCC 281 | agar diffusion | 1000 µg/mL | 14 mm
O=C(NN=Cc1ccc(Cl)cc1)c1snnc1C(F)(F)F | MTCC 1344 | agar diffusion / agar | 100 µg/mL | 0 mm
N=C1C(=S)N(c2ccc(F)cc2)C(=O)N1c1ccc(Cl)c(C(F)(F)F)c1 | - | agar diffusion / agar | 5 mg/mL | 16.5 mm
COc1ccc(/C=C2/OC3(COC(=O)N3)N(CCCNc3ccnc4cc(Cl)ccc34)C2=O)cc1 | - | agar diffusion | 400 µg/mL | 20 mm